Potato spindle tuber viroid, loop 15: variant abundance in plants

Data from the supplement of Wu et al. 2024, doi:10.1371/journal.ppat.1012142.

Region: loop 15 of PSTVd (intermediate strain), upper and lower strand joined, each 5' to 3', the first 7 letters being the upper strand, closing pairs included. Wild type: GGAAACCGCUACUAC. Varied positions (N): GGAAACCGNNNNNNC.

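A pool of all variants was put on leaves of three Nicotiana benthamiana plants. Progeny were sequenced from the inoculated region (day 5), the margin of the inoculated leaf (day 10) and systemic leaves (day 12).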

Values are reads per thousand in the sample; higher means more abundant, 0 means not found.
Each value is the mean of three plants.
"Pool" is the share in the plasmid pool used as inoculum, on the same scale.
The inoculated region was read from the minus strand, the other sites from the plus strand.
IR is the inoculated region, LM the leaf margin, Sys the systemic leaves.

GGAAACCGGCGCGUC (pool 0.224) gave IR 0.0586; LM 0; Sys 0.
GGAAACCGCAGAAGC (pool 0.288) gave IR 0.101; LM 0.0241; Sys 0.
GGAAACCGCUCCUUC (pool 0.272) gave IR 0.257; LM 0.129; Sys 0.0183.
GGAAACCGGCCACCC (pool 0.320) gave IR 0.0560; LM 0.00742; Sys 0.
GGAAACCGAACGCGC (pool 0.336) gave IR 0.0802; LM 0; Sys 0.
GGAAACCGAACAGGC (pool 0.192) gave IR 0.243; LM 0; Sys 0.0215.
GGAAACCGAACAUUC (pool 0.240) gave IR 0.0568; LM 0.00668; Sys 0.
GGAAACCGGCUGGCC (pool 0.208) gave IR 0.135; LM 0.00668; Sys 0.
GGAAACCGGACUGGC (pool 0.192) gave IR 0.0623; LM 0.00668; Sys 0.00760.
GGAAACCGGUCGAUC (pool 0.224) gave IR 0.0687; LM 0.0128; Sys 0.
GGAAACCGGUCCGGC (pool 0.288) gave IR 0.0956; LM 0; Sys 0.
GGAAACCGGACUUCC (pool 0.288) gave IR 0.117; LM 0; Sys 0.00537.
GGAAACCGGGCCGUC (pool 0.240) gave IR 0.125; LM 0.0328; Sys 0.
GGAAACCGUCUGAAC (pool 0.304) gave IR 0.197; LM 0.0202; Sys 0.00537.
GGAAACCGAUCGGAC (pool 0.240) gave IR 0.339; LM 0.136; Sys 0.0376.
GGAAACCGUGCCGUC (pool 0.352) gave IR 0.113; LM 0.0410; Sys 0.
GGAAACCGAAAAAUC (pool 0.208) gave IR 0.170; LM 0.00668; Sys 0.
GGAAACCGAACAGAC (pool 0.240) gave IR 0.102; LM 0.0128; Sys 0.
GGAAACCGCGCCUUC (pool 0.176) gave IR 0.464; LM 0.151; Sys 0.0107.
GGAAACCGAUGGAAC (pool 0.192) gave IR 0.324; LM 0.143; Sys 0.0161.
GGAAACCGCCGCGCC (pool 0.208) gave IR 0.105; LM 0.00742; Sys 0.
GGAAACCGAUGUAAC (pool 0.304) gave IR 0.0570; LM 0.0262; Sys 0.00537.
GGAAACCGAAGGUGC (pool 0.176) gave IR 0.0795; LM 0.00668; Sys 0.
GGAAACCGCCAGGAC (pool 0.176) gave IR 0.303; LM 0.163; Sys 0.0357.
GGAAACCGUUUCACC (pool 0.288) gave IR 0.114; LM 0.00539; Sys 0.00537.
GGAAACCGCAUACGC (pool 0.256) gave IR 0.156; LM 0.00668; Sys 0.
GGAAACCGGCUCGCC (pool 0.304) gave IR 0.0677; LM 0; Sys 0.
GGAAACCGUUCCUCC (pool 0.352) gave IR 0.0931; LM 0.00668; Sys 0.
GGAAACCGUCGUGGC (pool 0.272) gave IR 0.0669; LM 0; Sys 0.
GGAAACCGAUACGCC (pool 0.224) gave IR 0.0784; LM 0; Sys 0.
GGAAACCGGAAGCCC (pool 0.304) gave IR 0.140; LM 0; Sys 0.
GGAAACCGGGAGCCC (pool 0.240) gave IR 0.125; LM 0.00742; Sys 0.00537.
GGAAACCGAUUUCCC (pool 0.240) gave IR 0.122; LM 0.00668; Sys 0.
GGAAACCGGUAUCUC (pool 0.256) gave IR 0.0697; LM 0.0241; Sys 0.
GGAAACCGUUGCUAC (pool 0.176) gave IR 0.307; LM 0.109; Sys 0.0852.
GGAAACCGGAGGGGC (pool 0.272) gave IR 0.0761; LM 0.00668; Sys 0.
GGAAACCGGGAACGC (pool 0.144) gave IR 0.0841; LM 0.0200; Sys 0.
GGAAACCGAGCUUAC (pool 0.272) gave IR 0.260; LM 0.101; Sys 0.0743.
GGAAACCGAGUAUGC (pool 0.192) gave IR 0.0802; LM 0.0195; Sys 0.
GGAAACCGUGUAUUC (pool 0.384) gave IR 0.305; LM 0.197; Sys 0.0322.

3 of these entries, quoted again:

* GGAAACCGGAGGGGC (pool 0.272) -> IR 0.0761; LM 0.00668; Sys 0
* GGAAACCGGGAGCCC (pool 0.240) -> IR 0.125; LM 0.00742; Sys 0.00537
* GGAAACCGGACUUCC (pool 0.288) -> IR 0.117; LM 0; Sys 0.00537

With 43,870-66,106 reads a sample, very low values are single reads.
For reference, wild type rose from 33.9 per thousand in the pool to 202, 200, 159 (inoculated region), 724, 746, 710 (leaf margin) and 856, 883, 880 (systemic leaves).
Sequences that differ at fixed positions probably stem from PCR or sequencing errors, and defective variants can be carried along by functional ones.